Pooled drug test results. Numbers come from NIAID ChemDB, via PubChem.

All rows: tests in culture; agent: Hepatitis C virus; measure: EC90

Blank or dashed fields: not listed here. ECn is the concentration giving n% inhibition of infection, replication or growth. Lines come from different laboratories, so protocols vary.

O=C(Nc1ccccc1)c1cc(-n2cccc2)n(-c2ccc(Cl)cc2)n1 ; method: luciferase / replicon ; strain: Con1 (gt 1b) ; cells: Huh 5-2 ; result: >206.7 µM
Cc1cc2c(cc1F)c(C#N)c(-c1ccc(S(=O)(=O)N[C@@H](C)C(F)(F)F)cn1)n2-c1ncccn1 ; method: PCR ; strain: 1b ; result: 0.025 µM
CC(C)(C)OC(=O)[C@@H](NC(=O)N[C@H](C(=O)N1C[C@H]2C([C@H]1C(=O)NC(CC1CCC1)C(=O)C(N)=O)C2(C)C)C1Cc2ccccc2C1)C(C)(C)C ; method: replicon ; result: 10 µM
COc1c(C(C)(C)C)cc(-n2ccc(=O)[nH]c2=O)c2ncc(-c3ccc(NS(C)(=O)=O)cc3)cc12 ; conditions: 40% human serum ; method: replicon ; strain: GT 1a-H77 ; cells: Huh7 ; result: 0.025 µM
O=c1nc(NO)ccn1[C@H]1O[C@@H](CO)[C@H](O)[C@@H]1F ; method: replicon ; cells: Huh7 ; result: 5 µM
NC(=S)N/N=C/c1ccc(Br)cc1F ; method: luciferase / reporter gene / replicon ; cells: Huh7 ET ; result: 5.93 µM
CC(C)(C)C(=O)OCOP(=O)(CC[C@H]1O[C@@H](n2ccc(=O)[nH]c2=O)[C@](C)(F)[C@@H]1O)OCOC(=O)C(C)(C)C ; method: PCR ; cells: Huh7 ; result: >10 µM
COC(=O)NC[C@H](C(=O)N1CCCC1c1ncc(-c2ccc(-c3ccc(-c4cnc(C5CCCN5C(=O)[C@@H](NC(=O)OC)C(C)C)[nH]4)cc3)cc2)[nH]1)C(C)C ; strain: 1b ; cells: Huh7 ; result: 0.00005 µM
CSc1ccn([C@@H]2O[C@H](CO)[C@@H](O)[C@H]2F)c(=O)n1 ; method: replicon ; cells: Huh7 ; result: >100 µM
COc1nc(N)nc2c1ncn2[C@@H]1O[C@H](COP(=O)(N[C@@H](C)C(=O)OC(C)C)Oc2ccccc2)[C@@H](O)[C@@]1(C)F ; method: luciferase ; strain: H77 ; cells: Huh7 ; result: 0.0105 µM
C[C@@]1(F)[C@H](O)[C@@H](CO)O[C@@H]1n1cc(Cl)c2c(N)ncnc21 ; method: replicon ; cells: CEM ; result: >10 µM
Nc1c2n(c(=O)[nH]c1=O)C1OC(CN2)[C@@H](O)[C@H]1O ; method: replicon ; cells: Huh7 ; result: 85 µM
CC(C)(C)[C@H](NC(=O)N[C@H](C(=O)N1C[C@H]2C([C@H]1C(=O)NC(CC1CC1)C(=O)C(N)=O)C2(C)C)C(C)(C)C)C(=O)OC1Cc2ccccc2C1 ; method: replicon ; result: 0.5 µM
C[C@@]1(F)[C@H](O)[C@@H](CO)O[C@H]1n1cc(C#Cc2ccccc2)c2c(N)ncnc21 ; method: replicon ; cells: CEM ; result: >10 µM
O=C(N[C@@H](C(=O)N1CCC[C@H]1c1ncc(-c2ccc(-c3ccc(-c4cnc([C@@H]5CCCN5C(=O)[C@H](NC(=O)C5CC5)c5ccccc5)s4)cc3)cc2)s1)c1ccccc1)C1CC1 ; method: luciferase / reporter gene ; strain: genotype 1b ; cells: Huh7.5 ; result: 0.0000042 µM
CNC(=O)c1c(-c2ccc(F)cc2)oc2cc(N(CCO)S(C)(=O)=O)c(C3CC3)cc12 ; strain: 1b ; cells: Huh7 ; result: 0.03 µM
CC(C)(C)C(NC(=O)N[C@H](C(=O)N1C[C@H]2C([C@H]1C(=O)NC(CC1CC1)C(=O)C(=O)NCc1ccccc1)C2(C)C)C(C)(C)C)C(=O)O ; method: replicon ; result: 20 µM
Cc1c(C(=O)Nc2ccccc2)nn(-c2ccc(Cl)cc2)c1-n1cccc1 ; method: luciferase / replicon ; strain: Con1 (gt 1b) ; cells: Huh 5-2 ; result: 57.1 µM
CC(C)(C)OC(=O)N1CCN([C@@H](c2ccccc2C(F)(F)F)[C@@H](c2ccccc2C(F)(F)F)n2cc(Cn3cnc(=N)c4[nH]cnc43)nn2)CC1 ; method: absorbance ; result: 0.5 µM
CCCCC(NC(=O)[C@@H]1[C@@H]2[C@H](CN1C(=O)[C@@H](NC(=O)OC(C)(C)C)C(C)(C)C)C2(C)C)C(=O)C(=O)NCC(=O)N[C@H](C(=O)N(C)C)c1ccccc1 ; method: replicon ; result: 0.4 µM
C[C@@]1(F)[C@H](O)[C@@H](CO)O[C@H]1n1ccc(=O)[nH]c1=O ; method: replicon / PCR ; strain: WILD TYPE ; result: >100 µM
C[C@@]1(F)[C@H](O)[C@@H](CO)O[C@@H]1n1cc(Br)c2c(N)ncnc21 ; method: replicon ; cells: CEM ; result: >10 µM
CC(C)OC(=O)N[C@H](C(=O)N1C[C@@H]2OC(C)(C)C[C@@H]2C1C(=O)NC(CC1CC1)C(=O)C(=O)NCC(=O)N[C@H](C(=O)N(C)C)c1ccccc1)C(C)(C)C ; method: replicon ; result: 1.8 µM
COC(=O)c1ncn(C/C=C2/OC(=O)C(OCc3ccccc3)=C2OCc2ccccc2)n1 ; method: luciferase / replicon ; strain: 1b ; cells: Huh 5-2 ; result: >100 µg/mL
C=CCN1c2ccccc2[C@]23CC(=O)N(Cc4ccccc4)C2=NC(C(=O)OC)=C(C(=O)OC)C13 ; method: PCR ; cells: Huh7.5 ; result: 33.9 µM
CC(C)(C)C(NC(=O)N[C@H](C(=O)N1C[C@H]2C([C@H]1C(=O)NC(CC1CCC1)C(=O)C(N)=O)C2(C)C)C1Cc2ccccc2C1)C(=O)O ; method: replicon ; result: 5 µM
C#Cc1cn([C@H]2O[C@H](CO)[C@@H](O)[C@@]2(C)F)c2nc(N)nc(N)c12 ; method: replicon ; cells: CEM ; result: >10 µM
COC(=O)C1=C(C(=O)OC)C2N(C)c3ccc(OC)cc3[C@@]23C[C@@H](C(=O)OC)N(C(=O)CC(C)C)C3=N1 ; method: PCR ; cells: Huh7.5 ; result: 92.8 µM

The first 2 rows once more:

SMILES	conditions	method	strain	cells	result
O=C(Nc1ccccc1)c1cc(-n2cccc2)n(-c2ccc(Cl)cc2)n1	-	luciferase / replicon	Con1 (gt 1b)	Huh 5-2	>206.7 µM
Cc1cc2c(cc1F)c(C#N)c(-c1ccc(S(=O)(=O)N[C@@H](C)C(F)(F)F)cn1)n2-c1ncccn1	-	PCR	1b	-	0.025 µM